pKd: −log10 of the molar value.
Target: RidL_(2–1167)-Avi, biotinylated (Legionella pneumophila)
Test: SPR

Vps29 (from UniProt Q9UBQ0 1-182) (natural protein)
pKd: 6.40
kon: > 1e+06 M⁻¹ s⁻¹

Reference: PMC5691146
